# PubChem BioAssay AID1224833 | University of Georgia – 2016
# Purpose: 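Human genes whose knock-down alters rotavirus replication in monkey cells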 (primary screen)
# Cell system: monkey MA104 kidney cells
# Reagents: siRNA pool against human genes, 50 nM
# Duration: 48 h knock-down before infection; read 24 h after infection
# Conditions: infection with rotavirus strain RV3 two days after transfection; infectious dose for this stage not given
# Read-out: 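z-score of rotavirus antigen signal per well, from a fluorescent immunoassay, relative to non-targeting control wells on the same plate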
# Scale: z-score vs non-targeting control: higher = more rotavirus replication than with non-targeting control
# Hit rule: In these data the active calls have z-score vs non-targeting control at about -1 or lower, or at about 1 or higher
# Meaning of the calls: active = z-score beyond 1 either way; inactive = z-score within 1 of zero
# The deposit covers about 12,000 reagents; below is a random part of them. About 5,600 of all reagents (46%) were called active. 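Active calls cover z-scores past 1 in both directions, so they include lowered as well as raised rotavirus replication.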 Unmarked entries are inactive. Reagent sequences are not shown.
Gene,PubChem SID,z-score vs non-targeting control
GFM1 (GeneID 85476),SID329581872,-1.32 (active)
OFCC1 (GeneID 266553),SID329583789,-1.16 (active)
LCN6 (GeneID 158062),SID329583140,-1.26 (active)
MRAP (GeneID 56246),SID329580015,0.183
TRH (GeneID 7200),SID329575716,-1.67 (active)
PLA2G10 (GeneID 8399),SID329576094,0.881
DCST1 (GeneID 149095),SID329582988,0.459
ERRFI1 (GeneID 54206),SID329579257,2.76 (active)
AP2B1 (GeneID 163),SID329572717,-1.14 (active)
ELAC2 (GeneID 60528),SID329580484,-1.15 (active)
KLF15 (GeneID 28999),SID329578634,-1.61 (active)
RHBDF1 (GeneID 64285),SID329580609,-0.312
CYB5B (GeneID 80777),SID329581253,0.752
YOD1 (GeneID 55432),SID329579720,1.29 (active)
FAM90A1 (GeneID 55138),SID329579588,-0.702
ATRNL1 (GeneID 26033),SID329578281,-0.506
RSPO3 (GeneID 84870),SID329581746,-0.311
SSB (GeneID 6741),SID329575490,-0.337
POLA1 (GeneID 5422),SID329574892,-1.84 (active)
NFYB (GeneID 4801),SID329574624,1.29 (active)
SOX8 (GeneID 30812),SID329578769,-1.89 (active)
TNKS2 (GeneID 80351),SID329581227,-0.697
SPIRE1 (GeneID 56907),SID329580082,0.155
KIAA0586 (GeneID 9786),SID329576794,-0.896
DAZ4 (GeneID 57135),SID329580177,0.914
PGRMC2 (GeneID 10424),SID329577148,-0.94
CD2BP2 (GeneID 10421),SID329577145,-0.62
CIMIP7 (GeneID 646498),SID329584695,-2.77 (active)
TBC1D5 (GeneID 9779),SID329576789,-0.885
EPM2AIP1 (GeneID 9852),SID329576835,-1.78 (active)
ATXN7 (GeneID 6314),SID329575247,-0.437
OPRL1 (GeneID 4987),SID329574706,1.5 (active)
VPS35 (GeneID 55737),SID329579839,-1.08 (active)
NKAIN1 (GeneID 79570),SID329580896,-1.24 (active)
CDCA5 (GeneID 113130),SID329582179,-0.696
CTSW (GeneID 1521),SID329573321,0.787
KCTD8 (GeneID 386617),SID329584278,-0.0027
SPANXN2 (GeneID 494119),SID329584642,-1.68 (active)
RHEBL1 (GeneID 121268),SID329582415,-0.431
ZNF593 (GeneID 51042),SID329578872,-0.0036
LRRIQ1 (GeneID 84125),SID329581523,-0.147
DMTF1 (GeneID 9988),SID329576906,-3.3 (active)
YAF2 (GeneID 10138),SID329576985,0.899
PSORS1C1 (GeneID 170679),SID329583322,-0.766
SLC25A51 (GeneID 92014),SID329582045,-0.125
NECTIN1 (GeneID 5818),SID329575025,-0.179
PAN3 (GeneID 255967),SID329583734,0.676
EML2 (GeneID 24139),SID329578142,-1.6 (active)
SENP5 (GeneID 205564),SID329583477,0.93
FLII (GeneID 2314),SID329573667,-1.14 (active)
DCD (GeneID 117159),SID329582341,0.251
OTOP1 (GeneID 133060),SID329582700,0.725
KANK1 (GeneID 23189),SID329577860,-2 (active)
PLCL2 (GeneID 23228),SID329577883,0.953
SH3BP1 (GeneID 23616),SID329578091,-0.672
HNRNPA0 (GeneID 10949),SID329577445,0.632
TF (GeneID 7018),SID329575609,-0.106
SIN3A (GeneID 25942),SID329578234,-1.03 (active)
CMTM1 (GeneID 113540),SID329582191,1.49 (active)
BCAS2 (GeneID 10286),SID329577079,-0.521
BOP1 (GeneID 23246),SID329577893,1.2 (active)
HAL (GeneID 3034),SID329573929,2.31 (active)
PSMD11 (GeneID 5717),SID329574999,-1.24 (active)
EDIL3 (GeneID 10085),SID329576955,-2.06 (active)
NCR3 (GeneID 259197),SID329583768,0.904
ODAM (GeneID 54959),SID329579490,0.771
ENC1 (GeneID 8507),SID329576143,-1.67 (active)
EPB41L3 (GeneID 23136),SID329577825,0.203
OR5A1 (GeneID 219982),SID329583543,-0.252
RASGRF1 (GeneID 5923),SID329575081,0.274
KRT17 (GeneID 3872),SID329574249,-0.0978
SETD5 (GeneID 55209),SID329579639,-0.539
TTLL10 (GeneID 254173),SID329583697,0.989
HJV (GeneID 148738),SID329582982,-0.582
BEST1 (GeneID 7439),SID329575799,0.0358
GOLM2 (GeneID 113201),SID329582181,-2.88 (active)
LRRTM3 (GeneID 347731),SID329584162,-1.15 (active)
TSC22D3 (GeneID 1831),SID329573458,1.13 (active)
PSMA3 (GeneID 5684),SID329574976,0.619
IRAG2 (GeneID 4033),SID329574325,-1.74 (active)
GPATCH2L (GeneID 55668),SID329579799,-0.648
TMEM79 (GeneID 84283),SID329581577,-0.592
CR1 (GeneID 1378),SID329573248,1.35 (active)
RABEP1 (GeneID 9135),SID329576442,0.0246
XAGE5 (GeneID 170627),SID329583321,-0.561
OSBPL11 (GeneID 114885),SID329582241,0.34
FABP2 (GeneID 2169),SID329573596,-0.756
C10orf53 (GeneID 282966),SID329583808,-2.28 (active)
PHC2 (GeneID 1912),SID329573487,-0.621
GPR88 (GeneID 54112),SID329579252,-0.563
ECHDC1 (GeneID 55862),SID329579913,0.738
H1-10 (GeneID 8971),SID329576364,0.284
PDE6D (GeneID 5147),SID329574780,-1.43 (active)
SCAP (GeneID 22937),SID329577738,-1.48 (active)
TAS2R43 (GeneID 259289),SID329583779,-0.166
SLC46A3 (GeneID 283537),SID329583842,-2.05 (active)
SERPINA9 (GeneID 327657),SID329584004,-0.349
SLC2A8 (GeneID 29988),SID329578753,1.31 (active)
KRABD3 (GeneID 84626),SID329581670,-1.56 (active)
AKR1B10 (GeneID 57016),SID329580135,1.88 (active)
MRPS16 (GeneID 51021),SID329578860,0.433
RANBP6 (GeneID 26953),SID329578447,-0.155
SLC1A2 (GeneID 6506),SID329575336,0.789
AZIN2 (GeneID 113451),SID329582188,-2.04 (active)
BTBD8 (GeneID 284697),SID329577919,-0.566
BTBD8 (GeneID 284697),SID329583910,0.162
GON7 (GeneID 84520),SID329581644,-2.01 (active)
IL5 (GeneID 3567),SID329574137,-3.25 (active)
NINJ1 (GeneID 4814),SID329574632,0.133
SUFU (GeneID 51684),SID329579173,-0.701

Sorted by “z-score vs non-targeting control” (highest first): some entries from above.
Gene,PubChem SID,z-score vs non-targeting control
SENP5 (GeneID 205564),SID329583477,0.93
YAF2 (GeneID 10138),SID329576985,0.899
PAN3 (GeneID 255967),SID329583734,0.676
KCTD8 (GeneID 386617),SID329584278,-0.0027
ZNF593 (GeneID 51042),SID329578872,-0.0036
SLC25A51 (GeneID 92014),SID329582045,-0.125
LRRIQ1 (GeneID 84125),SID329581523,-0.147
NECTIN1 (GeneID 5818),SID329575025,-0.179
RHEBL1 (GeneID 121268),SID329582415,-0.431
PSORS1C1 (GeneID 170679),SID329583322,-0.766
EML2 (GeneID 24139),SID329578142,-1.6 (active)
SPANXN2 (GeneID 494119),SID329584642,-1.68 (active)
DMTF1 (GeneID 9988),SID329576906,-3.3 (active)
